The data set has as its system CCCCCCCCCCCCCCCC(=O)Oc1ccc([N+](=O)[O-])cc1. The data set is described as follows: purified protein. The conditions noted are these: soluble free enzyme, 0.1 M NaH2PO4 pH 7.0, 25 °C, 1 nM enzyme, pNPP 0-2.25 mM, pNPP stock in MeCN:Triton X-100 1:1.

For orientation: Km means the concentration of substrate that gives half-maximal velocity. Usually kcat stands for the number of substrate molecules converted per active site and unit of time at saturation. One may read the kcat/Km as the second-order rate constant that governs catalysis at low substrate concentration. “Proteus mirabilis lipase (PML), soluble (Proteus mirabilis HI4320; E130G/I118V)”: the Km came out at 234 ± 51 µM, the kcat stood at 59.2 s⁻¹ and the specificity constant (kcat/Km) came out at 253000 M⁻¹ s⁻¹.
